The results in this text go back to article PMC9406121.

This assay addresses DT390-IL-13 single-chain fusion cytotoxin (monomer) (Corynebacterium diphtheriae | not stated). The assay is described as follows: non-reducing SDS-PAGE; 4-12% gradient gels, samples in LDS buffer without heating and without reducing agent; stoichiometries from the relative front (Rf) against standards.

As a reminder, the stoichiometry N is a count of units in the complex or per binding partner. Substance “DT390-IL-13 single-chain fusion cytotoxin (monomer)” returned a stoichiometry N of 2.1.
